Results on one sequence are retold here after article PMC10694654 (The Journal of Biological Chemistry, 2023).

Amino acid sequences for entries named in this document (tags omitted). Residues count along the entry.
UniProt P44009, 23-236: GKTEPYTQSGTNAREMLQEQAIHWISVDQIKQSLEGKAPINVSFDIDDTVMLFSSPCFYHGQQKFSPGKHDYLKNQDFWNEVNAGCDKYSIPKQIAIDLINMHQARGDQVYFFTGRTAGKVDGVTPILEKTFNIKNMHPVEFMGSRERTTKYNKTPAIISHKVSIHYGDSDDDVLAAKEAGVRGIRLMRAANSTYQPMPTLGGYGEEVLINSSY

A negative result means that nothing was seen under these conditions.

The data set addresses His6-AphAHi (Haemophilus influenzae Rd KW20) (UniProt P44009). Put plainly: EMSA. The note with it: up to 50 uM protein, DNA 5 and 20 nM, EMSA: 20 mM Tris-HCl pH 7.5, 100 mM KCl, 2 mM MgCl2, 1 mM beta-mercaptoethanol, 50 ug/ml BSA, 0.1 mg/ml salmon sperm DNA, 20 min at 37 C, 5% gel, recombinant protein, protein details: N-terminal His6, label: Cy5 at 5' ends, probe letters rebuilt from the primers and the genome. A general note: In EMSA bound probe runs differently from free probe, usually more slowly.

Take “CGCCAATCTTTCGCTAATTCCACCGCACTTTTTAGCAAATGCCCTTGATGCATTTCAAGTTTACGTTCAAATAATTCAAAAAGTGTAAATGCATCTGCCGTTCCACCCGCAAAACCAGCAAGCACTTTGCCATTATATAAACGGCGTACTTTACGAGCATTACCTTTCATTACG (double strand) [200-bp uptake sequence dsDNA]”: the binding result is listed as “no binding” (with cAMP) and “no binding” (without cAMP).
